The source of these data is PubChem BioAssay AID1430 (University of Pittsburgh Molecular Library Screening Center, 2008).

For orientation: inhibition means the drop in the measured response relative to a control, in per cent.

The structures appear in SMILES notation. “And” between values parts separate entries of the source, which are not always exact repeats. Equal values may be shown once. Only a part is listed here, and it is no random draw. The source made the active and inactive calls.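 Rule for the calls: active = inhibition of 50% or more in the single-dose primary screen; inactive = inhibition below 50%.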

The assay relates to hexokinase 1 [Trypanosoma brucei]. As to the kind of experiment: Trypanosoma brucei hexokinase 1 inhibitors, primary screen, biochemical, G6PDH-coupled NADH absorbance, MLSCN library (AID 1430). Conditions: recombinant TbHK1, G6PDH-coupled NADH A340; at 10 µM; stronger effect = higher value.
In the case of `Cc1ccc(N/C(=N/P(=O)(N2CCOCC2)N2CCOCC2)N2CCOCC2)cc1`, the inhibition was inactive: -4.04%. The figure for `NC(=O)c1cc([N+](=O)[O-])cc([N+](=O)[O-])c1N` is inactive: -35.4%. In the case of `CN1CCCC(OC(=O)C(c2ccccc2)c2ccccc2)C1` (stereo not drawn), the inhibition is inactive: 3.73%. In the case of `Clc1ccc(Cl)c(NC2=NCC(CBr)S2)c1` (stereo not drawn) it was inactive: 2.88%; in that of `COc1ccccc1OP(=O)(Nc1ccc(C)cn1)Oc1ccccc1OC`, inactive: -4.79%; in that of `Cc1ccc(OP(=O)(Nc2nccs2)Oc2ccc(C)cc2)cc1`, inactive: -5.44%. With `Oc1ccccc1CNc1ccccn1`, the inhibition was inactive: -0.255%. The figure for `O=C(NC(Sc1ccncn1)C(Cl)(Cl)Cl)c1ccccc1` (stereo not drawn) is inactive: -1.27%; for `Cc1c2non([O-])c-2c(C)[n+](=O)[n+]1[O-]` it is inactive: -10.6%; for `Nc1cc(N)c2nonc2c1[N+](=O)[O-]` it is inactive: -32.5%. In the case of `CC(C)CC(=O)NC(Sc1ccc(Cl)cc1)C(Cl)(Cl)Cl` (stereo not drawn) it was inactive: -1.36%; in that of `O=P(Nc1nc2ccc(Cl)cc2s1)(c1ccccc1)c1ccccc1`, inactive: -2.02%; in that of `CC(=O)Nc1ccc([As](=O)(O)O)cc1`, inactive: -4.56%. Consider `O=C(O)c1ccccc1[As](=O)(O)O`, for which the inhibition was inactive: -8.95%. The figure for `Cc1cc(SC(NC(=O)c2ccc(F)cc2)C(Cl)(Cl)Cl)ncn1` (stereo not drawn) is inactive: -1.88%. The figure for `CCOP(=O)(Nc1ccccc1)OCC` is inactive: 5.92% and inactive: -5.79%; for `Cc1ccc(NP(=O)(Oc2ccccc2F)Oc2ccccc2F)nc1` it is inactive: -0.509%. Consider `Nc1cccc2ccc([As](=O)(O)O)cc12`, for which the inhibition is inactive: -23.9%. `CCN(N=Nc1nonc1N)c1nonc1N`: the inhibition is inactive: 9.34%. The figure for `O=C(Nc1cc([As](=O)(O)O)ccc1O)c1ccccc1` is inactive: -6.32%. As for `O=[N+]([O-])c1ncn(CCn2ncnc2[N+](=O)[O-])n1`, the inhibition is inactive: 3.14%. The figure for `CC(C)(C)C(=O)NC(Sc1ccncn1)C(Cl)(Cl)Cl` (stereo not drawn) is inactive: -7.35%; for `O=C(O)CNc1ccc([As](=O)(O)O)cc1` it is inactive: 2.68%; for `O=[N+]([O-])c1cccc(NC2=NCC(CBr)S2)c1` (stereo not drawn) it is inactive: -1.85%. For the compound `COc1ccc(C2=NCC(CBr)S2)cc1` (stereo not drawn), the inhibition is inactive: 0.816%. As for `Cc1ccc(NP(=O)(Oc2ccccc2)Oc2ccccc2)nc1`, the inhibition is inactive: -3.32%. Consider `CCc1nc2c(n1)c1c(non1O)c1c2no[n+]1[O-]`, for which the inhibition is inactive: -21%. In the case of `O=[N+]([O-])c1cc([N+](=O)[O-])c(CCNc2ccccc2)c([N+](=O)[O-])c1` it was inactive: 0.662%; in that of `O=[N+]([O-])c1cccc2n[nH]nc12`, inactive: 2.5%; in that of `CC(=O)N1C2C3N(C(C)=O)C1C1N(C(C)=O)C(C(N1C(C)=O)N3C(C)=O)N2C(C)=O`, inactive: 0.728%. The figure for `CCN(/C(=N/P(=O)(N1CCOCC1)N1CCOCC1)N1CCOCC1)c1ccc(OC)cc1` is inactive: -0.165%. For `Nc1ccc([As](=O)(O)c2ccc(N)cc2)cc1`, the inhibition is inactive: -9.21%. The figure for `C[N+]1=C2C=CC=CC=C2SC12C([N+](=O)[O-])=CC([N+](=O)[O-])=C[C-]2[N+](=O)[O-]` (stereo not drawn) is inactive: -1.95%. On to `CC1CCN(C(=O)Oc2c(Cl)cc(Cl)c3cccnc23)CC1`, for which the inhibition was inactive: 1.38%. As for `CC(C)=N/N=C(\N)N[N+](=O)[O-]`, the inhibition was inactive: -2.46%. For the compound `CN(C)C(=O)OCCc1n(C)cc[n+]1C`, the inhibition is inactive: 4.16%. With `CC(C)C(=O)NC(Sc1ccccc1)C(Cl)(Cl)Cl` (stereo not drawn), the inhibition is inactive: 0.524%. As for `O=P(Nc1nccs1)(c1ccccc1)c1ccccc1`, the inhibition is inactive: 5.11%. For `c1nnnn1CCn1cnnn1`, the inhibition was inactive: -1.65%. In the case of `O=P(Nc1ccccn1)(c1ccc(Br)cc1)c1ccc(Br)cc1` it was inactive: -8.51%.

On to `O=P(Nc1nc2ccccc2s1)(c1ccccc1)c1ccccc1`, for which the inhibition was inactive: -9.37%. The figure for `C[C@H]1OP(=O)(Oc2ccccc2)[C@H](O)[C@H](O)[C@H]1N=[N+]=[N-]` (stereo partly drawn) is inactive: 7.11%.

`O=[As](O)(c1ccccc1)c1ccc(O)cc1`: the inhibition is inactive: 13.6%. In the case of `O=[N+]([O-])c1ncn(CCn2cnc([N+](=O)[O-])n2)n1` it was inactive: -12.8%. In the case of `CC(=O)NC(SC(=S)N(C)C)C(Cl)(Cl)Cl` (stereo not drawn) it was inactive: -1.26%; in that of `O=C(OC1CN2CCC1CC2)c1cccc(Cl)c1` (stereo not drawn), inactive: 2.22%; in that of `C(Cc1nn[nH]n1)Cc1nn[nH]n1`, inactive: -1.56%. Take `Nc1ccc([As](=O)(O)c2ccc([N+](=O)[O-])cc2)cc1`: the inhibition is inactive: -8.17%.

Regarding `c1ccc(-c2nn[nH]n2)c(-c2nn[nH]n2)c1`, the inhibition is inactive: -1.39%. In the case of `CCOC(=O)NC(Sc1ccccc1)C(Cl)(Cl)Cl` (stereo not drawn) it was inactive: 2.63%; in that of `Cc1ccc(NP(=O)(Oc2cccc(C)c2)Oc2cccc(C)c2)nc1`, inactive: -6.03%. Consider `CCNC(=S)/N=C(\N)N[N+](=O)[O-]`, for which the inhibition is inactive: -8.45%.

`O=C(NC1CCS(=O)(=O)C1)NP(=S)(Oc1ccccc1)Oc1ccccc1` (stereo not drawn): the inhibition was inactive: -4.82%.

For `CCC(=O)N1C2C3N(C(=O)CC)C1C1N(C(=O)CC)C(C(N1C(=O)CC)N3C(=O)CC)N2C(=O)CC`, the inhibition is inactive: 0.66%.

Turning to `COC(=O)c1cc2c(s1)N=C(c1ccccc1)N(C)P2(=O)N1CCOCC1` (stereo not drawn), the inhibition was inactive: -32.5%. In the case of `Cc1ccc(OP(=O)(Nc2ccccn2)Oc2ccc(C)cc2)cc1` it was inactive: -3.55%; in that of `CC(=O)NC(SC(=S)N(CC(C)C)CC(C)C)C(Cl)(Cl)Cl` (stereo not drawn), inactive: 1.26%.

As to `Cc1ccccc1OP(=O)(Nc1ccccn1)Oc1ccccc1C`, the inhibition was inactive: -1.36%. In the case of `O=c1c2cc([N+](=O)[O-])ccc2[nH]c2c([N+](=O)[O-])cc([N+](=O)[O-])cc12` it was inactive: 0.278%; in that of `CN(C)C(=O)Oc1noc2ccccc12`, inactive: -1.96%; in that of `O=P1(Nc2nc3ccc(Cl)cc3s2)COc2ccccc2O1` (stereo not drawn), inactive: -3.7%.

Turning to `CCOc1ccc(C2=NCC(CBr)S2)cc1` (stereo not drawn), the inhibition was inactive: 11.7%. In the case of `CC(C)(C)C(=O)NC(Sc1ccccc1)C(Cl)(Cl)Cl` (stereo not drawn) it was inactive: -3.08%; in that of `C[C@H]1OP(=O)(Oc2ccccc2)C[C@@H]2O[C@@H]21` (stereo partly drawn), inactive: 7.95%; in that of `C[C@@H]1C=CCP(=O)(Oc2ccccc2)O1` (stereo partly drawn), inactive: -11.8%.

Regarding `CC(=O)Nc1ccc([As](=O)(O)O)c(O)c1`, the inhibition is inactive: -11.3%. Take `CC(=O)Nc1ccc(Oc2c([N+](=O)[O-])cc([N+](=O)[O-])cc2[N+](=O)[O-])cc1`: the inhibition was inactive: -24.6%. Regarding `O=C(OC1CN2CCC1CC2)c1ccc(Cl)cc1` (stereo not drawn), the inhibition was inactive: -0.968%.

As for `O=[As](O)(O)c1cccnc1`, the inhibition is inactive: -7.04%. The figure for `COc1cc(C(=O)NCC2(N3CCOCC3)CCCCC2)cc(Cl)c1OC(C)C` is inactive: -0.23%; for `Cc1cccc(OCC(=O)OC2CN3CCC2CC3)c1` (stereo not drawn) it is inactive: -1.98%. Consider `O=[As](O)(c1cccc(O)c1)c1cccc(O)c1`, for which the inhibition is inactive: -7.66%. `Nc1cccc2c([As](=O)(O)O)cccc12`: the inhibition is inactive: -20.5%. The figure for `Cc1ccc(NCCc2c([N+](=O)[O-])cc([N+](=O)[O-])cc2[N+](=O)[O-])cc1` is inactive: 4.27%; for `CCCOP(=S)(Nc1nc(N)cc(=O)[nH]1)OCCC` it is inactive: -5.87%.

For the compound `COc1cc(C2NCCC3(OCCO3)C2(C)C)cc(OC)c1OC` (stereo not drawn), the inhibition is inactive: 21.6%. As for `CCOP(=O)(Nc1cccc2ccccc12)OCC`, the inhibition is inactive: 4.14%. In the case of `CCOP1(=S)c2c(C)nn(CCC#N)c2N=C(c2ccccc2F)N1C` (stereo not drawn) it was inactive: 5.72%. On to `O=P(Nc1nccs1)(Oc1ccccc1)Oc1ccccc1`, for which the inhibition is inactive: 4.21%.

With `O=P(Nc1nccs1)(c1ccccc1)c1nc2ccccc2s1` (stereo not drawn), the inhibition is active: 89.8%. With `CS(=O)(=O)c1cc([N+](=O)[O-])c2no[n+]([O-])c2c1`, the inhibition was inactive: -31.8%. The figure for `Nc1ccccc1[As](=O)(O)c1ccccc1` is inactive: 2.78%; for `O=C(O)COc1ccc([As](=O)(O)O)cc1[N+](=O)[O-]` it is inactive: -15.8%; for `NC(=O)Nc1ccc([As](=O)(O)O)cc1` it is inactive: -4.17%. In the case of `CCOP1(=S)c2c(C)nn(CCC#N)c2N=C(c2ccc(F)cc2)N1C` (stereo not drawn) it was inactive: 0.296%. In the case of `CN(C(=O)Cc1ccccc1)[C@@H]1CC[C@]2(CCCO2)C[C@H]1N1CCCC1` it was inactive: -8.38%; in that of `O=[N+]([O-])c1ccc2c(c1)nnn2O`, inactive: -0.311%. Take `Cc1nn(-c2ccccc2)c2c1P(=O)(N1CCOCC1)N(C)C(c1ccccc1)=N2` (stereo not drawn): the inhibition is inactive: 0.371%.

Regarding `CC1CCC(C(C)C)C(OP(=O)(Nc2ccccn2)c2ccccc2)C1` (stereo not drawn), the inhibition was inactive: -3.8%.

`CN(C)C1(CNC(=O)c2ccc(S(C)(=O)=O)cc2)CCCCC1`: the inhibition is inactive: -5.39%. Regarding `O=C(/C=C/c1ccccc1)OC1CN2CCC1CC2` (stereo not drawn), the inhibition is inactive: 1.31%.

Take `O=P1(Nc2ncccn2)COc2ccccc2OC1`: the inhibition is inactive: -2.78%. In the case of `Nc1cccc([As](=O)(O)c2ccccc2)c1` it was inactive: 3.79%; in that of `O=[As](O)(c1cccs1)c1cccs1`, inactive: -9.25%.

On to `Cc1ccc(OCC(=O)OC2CN3CCC2CC3)cc1` (stereo not drawn), for which the inhibition was inactive: -0.275%.

For `O=P1(Nc2ccc(Br)cn2)COc2ccccc2OC1`, the inhibition is inactive: 2.71%. For the compound `O=P1(Nc2ccccn2)COc2ccccc2OC1`, the inhibition was inactive: 0.787%. In the case of `CCOP(=O)(Nc1ccc(C)cn1)OCC` it was inactive: -5.3%; in that of `Clc1n[nH]nc1-c1nn[nH][15n]1`, inactive: 5.17%; in that of `CC(C)(C)C(=O)NC(Sc1ncccn1)C(Cl)(Cl)Cl` (stereo not drawn), inactive: -12.2%. The figure for `CC(C)/C=N\N=C(\N)N[N+](=O)[O-]` is inactive: 1.5%; for `O=[As](O)(c1ccccc1Br)c1ccccc1Br` it is inactive: -1.6%. The figure for `CC1(CBr)Cn2c(nc3ccccc3c2=O)S1` (stereo not drawn) is inactive: -2.22%.
